Results of unrelated studies side by side (data: NIAID ChemDB).

Shared fields: toxicity to cultured cells; endpoint: CC50

An empty or dashed field is not shown. Neighbouring rows are from separate reports. CCn is the concentration with n% toxicity to the cells.

O=C(NCCc1ccc2c(n1)NCCC2)Nc1cc(C(F)(F)F)ccc1F ; cell line: PBMC ; result: 30 µM
CCOC(=O)[C@@]1(C)CC[C@]2(C)CC[C@]3(C)C(=CC(=O)[C@@H]4[C@@]5(C)CC/C(=N\OCc6ccc(Cl)c(Cl)c6)C(C)(C)[C@@H]5CC[C@]43C)[C@@H]2C1 ; cell line: CT26 ; method: MTT ; result: 54.85 µM
NS(=O)(=O)c1ccc(CCNc2ncnc3c2cnn3-c2cccc(Cl)c2)cc1 ; cell line: HUH 9B ; result: 30 µM
COC(=O)N[C@@H](Cc1ccccc1Cl)C(=O)N[C@H](CCC[C@@H](CO)N(CCC(C)C)S(=O)(=O)c1ccc(CO)cc1)C(C)C ; cell line: T lymphoid cells ; method: microscopy ; result: >10 µM
O=[N+]([O-])c1cncnc1N1CC[N+]2(CC1)CC[N+]1(CCN(c3ncncc3[N+](=O)[O-])CC1)CC2 ; cell line: L929 ; result: >369.4 µg/mL
CCC1(Cc2ccccc2)OS(=O)(=O)C=C1OCCCCc1ccccc1 ; cell line: HEL fibroblasts ; result: 99 µM
COC(=O)N[C@H](C(=O)N[C@H](CCC[C@@H](CO)N(C)S(=O)(=O)c1ccc(CO)cc1)C1CC1)C(c1ccccc1)c1ccccc1 ; cell line: T lymphoid cells ; method: microscopy ; result: >10 µM
CN(Cc1ncccc1/C=C\C#N)Cc1nc2ccccc2n1Cc1ccccc1 ; cell line: C8166 ; method: MTT ; result: >10 µM
COC(=O)N[C@@H](Cc1ccccc1Cl)C(=O)N[C@@H](C)CCC[C@@H](CO)N(CC(C)C)S(=O)(=O)c1ccc(CO)cc1 ; cell line: T lymphoid cells ; method: microscopy ; result: >10 µM
NCCCCN(Cc1nc2ccccc2[nH]1)C1CCCc2cccnc21 ; cell line: C8166 ; method: MTT ; result: >10 µM
CC(C)(C)C(=O)Nc1cccc(CCNC(=O)NCc2ccc(Cl)c(Cl)c2)n1 ; cell line: PBMC ; result: 11.4 µM
C[C@H]1[C@H](O)[C@@H](C)/C=C/C=C/C=C/C=C/C=C/C=C/C=C/[C@H](O[C@@H]2O[C@H](C)[C@@H](O)[C@H](N)[C@@H]2O)C[C@@H]2O[C@](O)(C[C@@H](O)C[C@@H](O)CC[C@H](O)[C@@H](O)C[C@@H](O)CC(=O)O[C@H]1C)C[C@H](O)[C@H]2C(=O)O ; cell line: CEM(12D-7) ; method: MTT ; result: >10 µM
Nc1nc2c(sc(=O)n2C/C=C\CO)c(=O)[nH]1 ; cell line: CFU-GM ; result: 85 µM
Cc1ccc(-n2ncc3c(NC(=O)Nc4ccc(C#N)cc4)ncnc32)c(C)c1 ; cell line: HUH 9B ; result: 19 µM
Oc1[nH]c2ccccc2c1N=NC(=S)Nc1ccc(F)cc1 ; cell line: hRD ; result: >25 µM
CCOC(=O)C1=C(CN2CC(F)(F)[C@@H]3[C@H]2CON3C[C@H](F)CCC(C)(C)C(=O)O)NC(c2nccs2)=N[C@H]1c1cccc(F)c1C ; cell line: HepG2.2.15 ; method: WST / absorbance ; result: 36.8 µM
COc1ccc2[nH]c(O)c(N=NC(=S)Nc3ccccc3)c2c1 ; cell line: hRD ; result: >25 µM
Cc1ccn(-c2ccnc3c(C(=O)C(=O)N4CCN(C(=O)c5ccccc5)[C@H](C)C4)c[nH]c23)n1 ; cell line: HeLa ; method: trypan blue ; result: >100 µM
CCC[C@@H](CCC[C@@H](CO)N(CCCF)S(=O)(=O)c1ccc(N)cc1)NC(=O)[C@@H](NC(=O)OC)C(c1ccccc1)c1ccccc1 ; cell line: T lymphoid cells ; method: microscopy ; result: >10 µM
CN1CCCC(NC(=O)NCCc2ccc3c(n2)NCCC3)C1 ; cell line: PBMC ; result: 50 µM
CCC1(Cc2ccccc2)OS(=O)(=O)C=C1NCc1ccccc1 ; cell line: HEL fibroblasts ; result: 92 µM
COC(=O)N[C@@H](Cc1ccccc1Cl)C(=O)N[C@H](CCC[C@@H](CO)N(C(C)C)S(=O)(=O)c1ccc(CO)cc1)C1CC1 ; cell line: T lymphoid cells ; method: microscopy ; result: >10 µM
CC1(C)[C@@H](O)CC[C@]2(C)[C@H]3C(=O)C=C4[C@@H]5C[C@@](C)(C(=O)OCC6CCOCC6)CC[C@]5(C)CC[C@@]4(C)[C@]3(C)CC[C@@H]12 ; cell line: HepG2.2.15 ; result: >1910 µM
CCOC(=O)C1=C(CN2CC(F)(F)[C@@H]3[C@H]2CON3C[C@H](OC)C(C)(C)C(=O)O)NC(c2nccs2)=N[C@H]1c1ccc(F)cc1Cl ; cell line: HepG2.2.15 ; method: WST / absorbance ; result: 100 µM
c1ccc(-n2ncc3c(NCCc4c[nH]c5ccccc45)ncnc32)cc1 ; cell line: HUH 9B ; result: 25 µM
Cc1nc(N2CC[N+]3(CC2)CC[N+]2(CCNCC2)CC3)c([N+](=O)[O-])c(N2CC[N+]3(CC2)CC[N+]2(CCNCC2)CC3)n1 ; cell line: GMK ; result: >571.8 µg/mL
CCOC(=O)C1=C(CN2CC(F)(F)[C@@H]3[C@H]2CON3C[C@@H](OCC)C(C)(C)C(=O)O)NC(c2nccs2)=N[C@H]1c1cccc(F)c1C ; cell line: HepG2.2.15 ; method: WST / absorbance ; result: 48 µM
CCOC(=O)COC(=O)[C@@]1(C)CC[C@]2(C)CC[C@]3(C)C(=CC(=O)[C@@H]4[C@@]5(C)CC[C@H](O)C(C)(C)[C@@H]5CC[C@]43C)[C@@H]2C1 ; cell line: HepG2.2.15 ; result: >1200 µM
CC[C@@H](CCC[C@@H](CO)N(C(C)C)S(=O)(=O)c1ccc(CO)cc1)NC(=O)[C@@H](N)C(c1ccccc1)c1ccccc1 ; cell line: T lymphoid cells ; method: microscopy ; result: >10 µM
CN(Cc1ccccn1)Cc1ncccc1CCC#N ; cell line: C8166 ; method: MTT ; result: >10 µM
Oc1c(N=NC(=S)Nc2ccccc2)c2ccccc2n1Cc1ccccc1 ; cell line: hRD ; result: >25 µM
CCOC(=O)[C@@]1(C)CC[C@]2(C)CC[C@]3(C)C(=CC(=O)[C@@H]4[C@@]5(C)CC/C(=N\OCc6cc(C)nn6C)C(C)(C)[C@@H]5CC[C@]43C)[C@@H]2C1 ; cell line: CT26 ; method: MTT ; result: 20.21 µM
CCCCC(=O)OC1CC(OC(C)C(C)C(O)C(C)C(O)C(C)C2OC(=O)/C=C/CC(O)CC(O)CC(O)CCC(C)C(O)C[C@@]3(O)O[C@H](CC(O)CC(OC(=O)CC(=O)O)CCCC(O)C4OC4C2C)C[C@H](O)[C@H]3O)OC(C)C1O ; cell line: COS 1 ; result: >100 µg/mL
CCOC(=O)C1=C(CN2CC(F)(F)[C@@H]3[C@H]2CON3C[C@H](O)C(CC)(CC)C(=O)O)NC(c2nccs2)=N[C@H]1c1cccc(F)c1C ; cell line: HepG2.2.15 ; method: WST / absorbance ; result: >25 µM
COc1cnc(-c2noc(C)n2)c2[nH]cc(C(=O)C(=O)N3CCN(C(=O)c4ccccc4)[C@H](C)C3)c12 ; cell line: HeLa ; method: trypan blue ; result: >100 µM
CC1(C)[C@@H](O)CC[C@]2(C)[C@H]3C(=O)C=C4[C@@H]5C[C@@](C)(C(=O)OCc6ccc(OC(F)(F)F)cc6)CC[C@]5(C)CC[C@@]4(C)[C@]3(C)CC[C@@H]12 ; cell line: HepG2.2.15 ; result: >1130 µM
CCOC(=O)C1=C(CN2CC(F)(F)[C@@H]3[C@H]2CON3C[C@@H](F)C(C)(C)C(=O)O)NC(c2nccs2)=N[C@H]1c1ccc(F)c(F)c1C ; cell line: HepG2.2.15 ; method: WST / absorbance ; result: 50 µM
Cc1ccc(-n2ncc3c(Nc4ccc(N5CCOCC5)cc4)ncnc32)c(C)c1 ; cell line: HUH 9B ; result: 57 µM
CCn1c(O)c(N=NC(=S)Nc2ccccc2)c2ccccc21 ; cell line: RD ; result: >25 µM
Cc1ccc(-n2ncc3c(Nc4ccc(-c5cnco5)cc4)ncnc32)c(C)c1 ; cell line: HUH 9B ; result: 26 µM
CCOC(=O)[C@@]1(C)CC[C@]2(C)CC[C@]3(C)C(=CC(=O)[C@@H]4[C@@]5(C)CC/C(=N\OCc6ccc(Br)cc6)C(C)(C)[C@@H]5CC[C@]43C)[C@@H]2C1 ; cell line: K562 ; method: MTT ; result: 25.01 µM
CCC1(Cc2ccccc2)OS(=O)(=O)C=C1OCc1ccc(Br)cc1 ; cell line: HEL fibroblasts ; result: 171 µM
CCOC(=O)[C@@]1(C)CC[C@]2(C)CC[C@]3(C)C(=CC(=O)[C@@H]4[C@@]5(C)CC/C(=N\OCc6cc(Br)cc(Br)c6)C(C)(C)[C@@H]5CC[C@]43C)[C@@H]2C1 ; cell line: CT26 ; method: MTT ; result: 74.86 µM
CCCc1cc(=O)oc2c(C(=O)CC)c(O)cc(O)c12 ; cell line: CV-1 ; result: 10 µg/mL
CCCN([C@H](CO)CCCC(C)(C)NC(=O)[C@@H](NC(=O)OC)C(c1ccccc1)c1ccccc1)S(=O)(=O)c1ccc(N)cc1 ; cell line: T lymphoid cells ; method: microscopy ; result: >10 µM
CCCc1cc(=O)oc2cc(OC(=O)CC)cc(O)c12 ; cell line: CV-1 ; method: neutral red ; result: 100 µg/mL
CCOC(=O)C1=C(CN2CC(F)(F)[C@@H]3[C@H]2CON3C[C@](C)(O)C(C)(C)C(=O)O)NC(c2nccs2)=N[C@H]1c1cccc(F)c1C ; cell line: HepG2.2.15 ; method: WST / absorbance ; result: >100 µM
CCOC(=O)[C@@]1(C)CC[C@]2(C)CC[C@]3(C)C(=CC(=O)[C@@H]4[C@@]5(C)CC/C(=N\OCc6cnc(Cl)s6)C(C)(C)[C@@H]5CC[C@]43C)[C@@H]2C1 ; cell line: CT26 ; method: MTT ; result: 12.29 µM
Cc1ccc(-n2ncc3c(Nc4cccc(C(F)(F)F)c4)ncnc32)c(C)c1 ; cell line: HUH 9B ; result: 36 µM
CC(C)Oc1cccc(CCNC(=O)Nc2cccc(F)c2)n1 ; cell line: PBMC ; result: 50 µM
CCCc1cc(=O)oc2cc(OC(=O)CC)c3c(c12)OC(C)(C)C=C3 ; cell line: CV-1 ; result: 6 µg/mL
O=C(NCCc1ccc2c(n1)NCCC2)Nc1ccccc1Oc1ccccc1 ; cell line: PBMC ; result: 8.2 µM
COc1cc(/C=C/C(=O)O[C@H]2CC[C@]3(C)[C@H]4C(=O)C=C5[C@@H]6C[C@@](C)(C(=O)O)CC[C@]6(C)CC[C@@]5(C)[C@]4(C)CC[C@H]3C2(C)C)cc(OC)c1OC ; cell line: HepG2.2.15 ; result: >1160 µM
O=C(NCCCl)N1CC[N+]2(CC1)CC[N+]1(CCN(C(=O)NCCCl)CC1)CC2 ; cell line: GMK ; result: >90.4 µg/mL
CSc1cccc(NC(=O)NCCc2ccc3c(n2)NCCC3)c1 ; cell line: PBMC ; result: 2.4 µM
CN1CCN(c2ccnc3nc(CN(C)Cc4ccccn4)[nH]c23)CC1 ; cell line: C8166 ; method: MTT ; result: >10 µM
O=[N+]([O-])c1c(N2CC[N+]3(CC2)CC[N+]2(CCNCC2)CC3)ncnc1N1CC[N+]2(CC1)CC[N+]1(CCNCC1)CC2 ; cell line: GMK ; result: >581 µg/mL
O=C(C(=O)N1CCN(C(=O)c2ccccc2)CC1)c1c[nH]c2c(-c3ncco3)ccnc12 ; cell line: HeLa ; method: trypan blue ; result: >100 µM
COc1cccc(NC(=O)NCCc2ccc3c(n2)NCCC3)c1 ; cell line: PBMC ; result: 5 µM
CCC1(Cc2ccccc2)OS(=O)(=O)C=C1OCc1ccc([N+](=O)[O-])cc1 ; cell line: HEL fibroblasts ; result: <200 µM
COC(=O)CCc1cccnc1CN(C)Cc1nc2ccccc2[nH]1 ; cell line: C8166 ; method: MTT ; result: >10 µM
CCCc1cc(=O)oc2c(C(=O)CC)c(O)c3c(c12)OC(C)(C)C=C3 ; cell line: CV-1 ; method: neutral red ; result: 100 µg/mL
CN(Cc1nc2ccccc2[nH]1)Cc1ncccc1CCCNS(C)(=O)=O ; cell line: C8166 ; method: MTT ; result: >10 µM
CC1(C)[C@@H](O)CC[C@]2(C)[C@H]3C(=O)C=C4[C@@H]5C[C@@](C)(C(=O)OCCOc6ccccc6)CC[C@]5(C)CC[C@@]4(C)[C@]3(C)CC[C@@H]12 ; cell line: HepG2.2.15 ; result: 101 µM
O=C(CNc1cccc(F)c1)NCCc1ccc2c(n1)NCCC2 ; cell line: PBMC ; result: 50 µM
CC1(C)[C@@H](O)CC[C@]2(C)[C@H]3CC=C4[C@@H]5C[C@@](C)(C(=O)OCc6ccc(C(F)(F)F)cc6)CC[C@]5(C)CC[C@@]4(C)[C@]3(C)CC[C@@H]12 ; cell line: HepG2.2.15 ; result: >1500 µM
O=C(NCCCc1ccc2c(n1)NCCC2)NCc1ccc(Cl)c(Cl)c1 ; cell line: PBMC ; result: 6.1 µM
COc1cnc(-n2ncc(C)n2)c2[nH]cc(C(=O)C(=O)N3CCN(C(=O)c4ccccc4)CC3)c12 ; cell line: HeLa ; method: trypan blue ; result: >100 µM
Cc1ccc(-n2ncc3c(NC(=O)Nc4ccc(C)c(C)c4)ncnc32)c(C)c1 ; cell line: HUH 9B ; result: 13.5 µM

A second listing of 8 rows from above:

compound	cell line	method	result
COc1cnc(-c2noc(C)n2)c2[nH]cc(C(=O)C(=O)N3CCN(C(=O)c4ccccc4)[C@H](C)C3)c12	HeLa	trypan blue	>100 µM
Cc1ccn(-c2ccnc3c(C(=O)C(=O)N4CCN(C(=O)c5ccccc5)[C@H](C)C4)c[nH]c23)n1	HeLa	trypan blue	>100 µM
COc1cccc(NC(=O)NCCc2ccc3c(n2)NCCC3)c1	PBMC	-	5 µM
CC1(C)[C@@H](O)CC[C@]2(C)[C@H]3C(=O)C=C4[C@@H]5C[C@@](C)(C(=O)OCC6CCOCC6)CC[C@]5(C)CC[C@@]4(C)[C@]3(C)CC[C@@H]12	HepG2.2.15	-	>1910 µM
CCCc1cc(=O)oc2cc(OC(=O)CC)cc(O)c12	CV-1	neutral red	100 µg/mL
CCCc1cc(=O)oc2cc(OC(=O)CC)c3c(c12)OC(C)(C)C=C3	CV-1	-	6 µg/mL
CCC1(Cc2ccccc2)OS(=O)(=O)C=C1NCc1ccccc1	HEL fibroblasts	-	92 µM
CCC1(Cc2ccccc2)OS(=O)(=O)C=C1OCc1ccc(Br)cc1	HEL fibroblasts	-	171 µM